Target: CD3 receptor (CD3ε subunit of the T cell receptor complex) (human) (UniProt P07766)
Assay: flow cytometry on cells

Work on Stx1B-scFv OKT3 lectibody yielded a percent of PBMCs positive for lectibody (35.6 nM), untreated control of 49.8%.
